Test results reported in publication PMC12421842.

Key:
[1] = target: T1, HicB (HicB-His) (Neisseria gonorrhoeae FA1090) (UniProt Q5F6D2); assay: DNase I footprinting; conditions: 14 bp protected, 3 bp upstream of putative -35; recombinant protein; label: FAM (forward primer), HEX (reverse primer); probe letters rebuilt from the primers and the genome
T1 sequence: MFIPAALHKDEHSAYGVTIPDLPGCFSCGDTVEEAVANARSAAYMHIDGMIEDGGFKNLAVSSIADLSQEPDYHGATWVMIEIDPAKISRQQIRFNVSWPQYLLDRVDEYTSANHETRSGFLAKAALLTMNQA

[2] = target: T1, HicB (HicB-His) (Neisseria gonorrhoeae FA1090); assay: EMSA; conditions: 10 ug HicB, 100x unlabeled norB probe as specific competitor; EMSA: 20 mM HEPES pH 7.6, 1 mM EDTA, 10 mM (NH4)2SO4, 1 mM DTT, 0.2% Tween-20, 30 mM KCl, 1.25 ng/uL calf thymus DNA, 30 min at 30 C; recombinant protein; label: DIG; probe letters rebuilt from the primers and the genome

| Sequence | binding result [1] | binding result [2] |
| --- | --- | --- |
| GCAGTAGTTGCAGGGAAGGGTGTAAAAAGCCCGCATAACGCGGGCGGTCTTGAGGGCTGTCAGCCGCAGGCAAAGTTTCTGATGATTTTGCCTTCGCTTCGGTTATCGGCAAGCTGTATGCCCTGTTCCTCCAGGTCGCCCGATACGTCAAGCAATGCCTTTTCTTGTGCCTTGTCGGGA (double strand) [hicAB promoter footprinting probe] | binds |  |
| AGCTTCTTGTACTGTCCCATTTTGAGAGCTCCTTTTAATAAATCAGTTGTTTAAAATTCACAAAATATGAATGTTAAAGATTGTAGCATGGTTTACCGCGCAAATAAACATTTGTTCAAACAAACTCACATATAGAACAAATACATATATGATAATAACTATCATTATTCTTTACTCGGAAATTGCCCTGCCTTTGCCTGCTCTGCCGGAGCCCCTAGCAAATCAGCCTATTCATTGTAATTTTTAGTAGTTATAAAGTATTAGAAGCGTCATTTTAAGTTCATATTTTATGAATTATTTGACTTAAATTAAAATGCCCGCAATGGGACAACCGCATAATCACACCAAGTTCTTAACTAATCCCCCCTACTTTTCTTACAAAAGGAA (double strand) [norB promoter EMSA probe] |  | binds |

Construct, isoform or probe ends are uncertain for at least one entry.
